Measured values from several laboratories, pooled; numbers as filed in NIAID ChemDB.

Common to all: growth or infection tests; agent: HIV-1; read by: cytopathic effect / MTT; endpoint: EC50

a–b is a range or a potency band.

smiles	changes	cell line	strain	result
CC(C)[C@H](NC(=O)OCc1ccccc1)C(=O)N[C@@H](Cc1ccccc1)[C@H](O)[C@@H](O)[C@H](Cc1ccccc1)NC(=O)[C@@H](NC(=O)OCc1ccccc1)C(C)C	-	MT-4	IIIB	0.02–0.4 µM
CNc1cccc2c1nc(-c1c(F)cccc1F)n2Cc1c(F)cccc1F	RT-Y181C	MT-4	-	0.26 µM
CC(C)[C@H](NC(=O)OCc1ccccc1)C(=O)N[C@@H](Cc1ccccc1)[C@H](O)[C@H](O)[C@H](Cc1ccccc1)NC(=O)[C@@H](NC(=O)OCc1ccccc1)C(C)C	-	MT-4	IIIB	0.02–0.4 µM
CN1c2ccccc2Sc2ccccc21	-	MT-4	IIIB	>20 µg/mL
O=C1Nc2c(csc2[N+](=O)[O-])S(=O)(=O)N1Cc1ccccc1	-	MT-4	IIIB	>5.9 µM
COC(=O)CNC(=O)COc1ccc2ccccc2c1	-	MT-4	IIIB	>100 µg/mL
N#C[C@]1(CO)O[C@@H](n2cnc3c(N)ncnc32)C[C@@H]1O	-	MT-4	IIIB	0.051 µM
CC(C)Nc1cccnc1N1CCN(C(=O)c2cc3cc(NS(C)(=O)=O)ccc3[nH]2)CC1	-	MT-4	IIIB	0.0039 µM
Cc1cn([C@H]2C[C@H](N=[N+]=[N-])[C@@H](CO)O2)c(=O)[nH]c1=O	-	MT-4	IIIB	0.02 µM
Cc1cc(C)c(Nc2nc(Nc3ccc(C#N)cc3)ncc2C)c(C)c1	-	MT-4	LAI	0.017 µM
CC(=O)NCCCN1c2ccccc2Sc2ccc(Cl)cc21	-	MT-4	IIIB	>500 µg/mL
CCn1cc(C(=O)O)c(=O)c2cc3c(cc21)OCO3	-	MT-4	-	>200 µg/mL
Nc1ccn([C@H]2CC[C@@H](CO)O2)c(=O)n1	-	MT-4	IIIB	0.47–1.1 µM
COC(=O)NCCCN1c2ccccc2Sc2ccc(Cl)cc21	-	MT-4	IIIB	>500 µg/mL
N#CCN1C(=O)N(Cc2ccccc2)c2cscc2S1(=O)=O	-	MT-4	IIIB	>291 µM
c1ccc2c(c1)Nc1ccccc1S2	-	MT-4	IIIB	>500 µg/mL
O=C1Nc2cscc2S(=O)(=O)N1c1ccccc1Br	-	MT-4	IIIB	>695 µM
NS(=O)(=O)c1cccc(CN2C(=O)N(Cc3cccc(S(N)(=O)=O)c3)N(Cc3ccccc3)C[C@@H](O)[C@H]2Cc2ccccc2)c1	-	MT-4	IIIB	0.39 µM
Cc1cn([C@H]2C[C@H](N=[N+]=[N-])[C@@H](CO)O2)c(=O)[nH]c1=O	-	MT-4	HE	0.0004 µM
Cc1cn([C@H]2C[C@H](N=[N+]=[N-])[C@@H](CO)O2)c(=O)[nH]c1=O	-	MT-4	IIIB	0.0059 µM
Cc1c(Sc2ccccc2)n(COCCO)c(=O)[nH]c1=O	-	CEM(DAY 4) + CEM	IIIB	1.3 µM
Cc1cn([C@H]2C[C@H](N=[N+]=[N-])[C@@H](CO)O2)c(=O)[nH]c1=O	-	MT-4	IIIB	0.024 µg/mL
Cc1c(C(C)C)s/c(=N\S(=O)(=O)c2cccc([N+](=O)[O-])c2)n1C	-	MT-4	IIIB	0.1 µM
Fc1cccc(F)c1Cn1c(-c2c(F)cccc2F)nc2c(Br)cccc21	RT-L100I	MT-4	-	0.3 µM
NNC(=O)CNC(=O)COc1ccc2ccccc2c1	-	MT-4	IIIB	>100 µg/mL
O=C1Nc2cscc2S(=O)(=O)N1Cc1ccccc1	-	MT-4	IIIB	>78.8 µM
C[C@H](NC(=O)COc1ccc2ccccc2c1)C(=O)NN	-	MT-4	IIIB	>46 µg/mL
CCN1c2ccccc2Sc2ccccc21	-	MT-4	IIIB	>500 µg/mL
O=C1Nc2cscc2S(=O)(=O)N1c1ccc(F)cc1	-	MT-4	IIIB	>435.8 µM
CC(=O)Nc1cccc2c1nc(-c1c(F)cccc1F)n2Cc1c(F)cccc1F	RT-V108I	MT-4	-	2.82 µM
C1CNCCNCCCN(CCCN2CCCNCCNCCCNCC2)CCNC1	-	MT-4	NL4-3	0.56 µg/mL
CC(C)Nc1cccnc1N1CCN(C(=O)c2ccc(-c3ccc(NS(C)(=O)=O)cc3)[nH]2)CC1	-	MT-4	IIIB	0.9 µM
CCn1cc(C(=O)O)c(=O)c2ccc(C)nc21	-	MT-4	-	>250 µg/mL
CCc1s/c(=N\S(=O)(=O)c2cccc([N+](=O)[O-])c2)n(C)c1C	-	MT-4	IIIB	0.23 µM
COC(=O)P(=O)(OCOC(=O)C(C)C)OCOC(=O)C(C)C	-	H9	IIIB	>150 µM
Nc1ccn([C@H]2CC[C@@H](CO)O2)c(=O)n1	-	CEM + CEM-SS	RF	0.018 µM
Nc1cccc2c1nc(-c1c(F)cccc1F)n2Cc1c(F)cccc1F	RT-D67N K70R L100I T215Y K219Q	MT-4	4XAZT/L100I (RT D67N K70R L100I T215Y K219Q)	0.3 µM
CN1C(=O)Nc2cscc2S1(=O)=O	-	MT-4	IIIB	>99.8 µM
COC(=O)[C@H](Cc1ccc(O)cc1)NC(=O)COc1ccc2ccccc2c1	-	MT-4	IIIB	>65 µg/mL
CC(C)=CCN1Cc2cc(Cl)cc3[nH]c(=S)n(c23)C[C@@H]1C	-	CEM + CEM-SS	G	0.188 µM
Nc1ccn([C@H]2CC[C@@H](CO)O2)c(=O)n1	-	MOLT-4	IIIB	0.014 µM

For reference, 4 entries again:

smiles | changes | cell line | strain | result
O=C1Nc2cscc2S(=O)(=O)N1c1ccccc1Br | - | MT-4 | IIIB | >695 µM
CC(C)[C@H](NC(=O)OCc1ccccc1)C(=O)N[C@@H](Cc1ccccc1)[C@H](O)[C@H](O)[C@H](Cc1ccccc1)NC(=O)[C@@H](NC(=O)OCc1ccccc1)C(C)C | - | MT-4 | IIIB | 0.02–0.4 µM
CC(C)Nc1cccnc1N1CCN(C(=O)c2ccc(-c3ccc(NS(C)(=O)=O)cc3)[nH]2)CC1 | - | MT-4 | IIIB | 0.9 µM
COC(=O)NCCCN1c2ccccc2Sc2ccc(Cl)cc21 | - | MT-4 | IIIB | >500 µg/mL

Conditions beyond the fields shown may differ between rows. An empty or dashed field is not shown. ECn: concentration that inhibits the pathogen or its effect by n%.